Data reported in PubChem BioAssay AID1964107 (National Center for Advancing Translational Sciences (NCATS), 2024).
The list shows a part of the results, in another mix than the full data. Inconclusive results are not listed. Some salts and complexes are drawn in separate pieces, as the source files them; their charges need not balance. The source made the active and inactive calls. The call rests on the fitted dose curve.

Molecular target: Polyprotein P1234 (Chikungunya virus (strain S27-African prototype)) (UniProt Q8JUX6)
Assay: Primary qHTS for inhibitors of NSP2Pro chikungunya virus (CHIKV); further: nearly all actives have a fitted effect of over 60% in size
Conditions: FRET peptide cleavage, fluorescence 1 h; at 24.9 µM (top of the series) unless noted
On the % scale 0 is the no-effect control and ±100 the full control effect.

SMILES	activity change, negative = inhibition
C/C1=C2N=C(/C=C3N=C(/C(C)=C4\[N-][C@@](C)([C@@H]5N=C1[C@](C)(CCC(=O)NC[C@@H](C)OP(=O)([O-])O[C@H]1[C@@H](O)[C@@H](n6cnc7cc(C)c(C)cc76)O[C@@H]1CO)[C@H]5CC(N)=O)[C@@](C)(CC(N)=O)[C@@H]4CCC(N)=O)[C@@](C)(CC(N)=O)[C@@H]\3CCC(N)=O)C(C)(C)[C@@H]/2CCC(N)=O.[C-]#N.[Co+3]	inactive: -11.4%
CCOP(=O)(CC)Oc1ccc([N+](=O)[O-])cc1 (stereo unspecified)	inactive: -4.63%
CC(C)OP(=O)(F)OC(C)C	inactive: -7.48%
C/C1=C2N=C(/C=C3N=C(/C(C)=C4\N=C(C(CC(N)=O)C4(C)CCC(=O)NCC(C)OP(=O)([O-])OC4C(CO)OC(n5cnc6cc(C)c(C)cc65)C4O)C4(C)N=C1C(CCC(N)=O)C4(C)CC(N)=O)C(CCC(N)=O)C\3(C)C)C(CCC(N)=O)C/2(C)CC(N)=O.[C-]#N.[Co] (stereo unspecified)	inactive: -11.7% [at 10 µM]
O=[N+]([O-])OCC(CO[N+](=O)[O-])(CO[N+](=O)[O-])CO[N+](=O)[O-]	inactive: -3.5%
O=[N+]([O-])c1cccc([N+](=O)[O-])c1	inactive: -6.21%
